Compound potency records, mixed from different reports. Data source: NIAID ChemDB in PubChem.

Common to all: whole-cell or culture tests; agent: Respiratory syncytial virus; endpoint: EC50

Lines come from different laboratories, so protocols vary. Two numbers with a dash give a range or band. ECn is the concentration giving n% inhibition of infection, replication or growth. Blank or dashed fields: not listed here.

structure	strain or isolate	cells	read by	value
CC(C)(C)c1ccc2c(c1)CSSC2	LONG	HeLa	cytopathic effect	>125.2 µM
COc1ccc(OC)c(/C(C)=N/NC(=O)c2ccncc2)c1	-	HeLa cells	MTT	>4 µg/mL
CC(C)Oc1ccccc1CNC(=O)c1ccc2cnccc2n1	A2	MA-104	cytopathic effect	19 µM
COc1ncnc2c1ncn2[C@@H]1O[C@H](CO)[C@@H](O)[C@@H]1O	-	-	cytopathic effect	>100 µM
O=c1cc(-c2ccc(O)c(O)c2)oc2cc(OC3OC(CO)C(O)C(O)C3O)cc(O)c12	-	HEP-2	cytopathic effect	>25 µg/mL
NC(=O)CCN(CCC(N)=O)S(=O)(=O)c1cccc(Nc2nc(Nc3cccc(S(=O)(=O)N(CCC(N)=O)CCC(N)=O)c3)nc(Nc3ccc(-c4ccc(Nc5nc(Nc6cccc(S(=O)(=O)N(CCC(N)=O)CCC(N)=O)c6)nc(Nc6cccc(S(=O)(=O)N(CCC(N)=O)CCC(N)=O)c6)n5)cc4S(=O)(=O)O)c(S(=O)(=O)O)c3)n2)c1	71050/TYPE A	HEP-2	cytopathic effect	0.25 µg/mL
CN(C)c1ccc2c(c1)CSSC2	LONG	HeLa	cytopathic effect	37.9 µM
CCC[C@]1(CC(=O)O)OCCc2c1[nH]c1c(C)ccc(C#N)c21	-	VERO	cytopathic effect	>80 µM
O=C(Nc1ccc(NC(=S)Nc2ccc(C(F)(F)F)c(Cl)c2)cc1)c1cocn1	-	HFF	-	>10 µg/mL
N#Cc1cc(NC(=O)c2ccccc2)c(=O)n2c1[nH]c1ccccc12	LONG	HEP-2	plaque count	0.1 µg/mL
COc1cc(OC)c(NC(=S)Nc2ccc(NC(=O)c3ccco3)cc2C(F)(F)F)cc1Cl	-	HFF	-	>10 µg/mL
COc1cc(OC)c(NC(=S)Nc2ccc(NC(=O)c3ccco3)cc2)cc1Cl	A2	HFF	-	>20 µM
CC(=O)N[C@H]1C[C@@H](n2cnc3c(N)ncnc32)[C@H](O)[C@@H]1O	-	HFF	-	>100 µg/mL
CCOC(=O)c1cc(C#N)c2[nH]c3ccccc3n2c1=O	-	HEP-2	syncytia	36.5 µg/mL
C=C(N=CC)c1nc(-c2cccc(OC)c2)n(C2O[C@H](CO)[C@@H](O)[C@H](O)[C@H]2O)n1	LONG	HeLa	cytopathic effect	100 µg/mL
O=C(Nc1ccc(NC(=S)Nc2cccc(C(F)(F)F)c2)cc1)c1ccco1	-	HFF	-	>10 µg/mL
CC(C)Oc1ccccc1NC(=O)Nc1ccc2cnccc2n1	-	-	plaque count	>30 µg/mL
c1ccc2c(c1)CSSC2	LONG	HeLa	cytopathic effect	4.5 µM
CC(NC(=S)Nc1ccc(NC(=O)c2ccccc2F)cc1)c1ccc(F)cc1	A2	HFF	ELISA	>10 µg/mL
C=C(N=CC)c1nc(-c2cccc(C)c2)n([C@@H]2O[C@H](CO)[C@@H](O)[C@H]2O)n1	LONG	HeLa	cytopathic effect	>100 µg/mL
CCC(=O)Nc1ccc(NC(=S)Nc2cc(Cl)c(OC)cc2OC)cc1	-	HFF	-	>10 µg/mL
CC=NC(=N)c1nc(-c2ccccc2)n(Cc2ccccc2)n1	LONG	HeLa	cytopathic effect	>20 µg/mL
O=C(NC1CC1)c1cc2c(s1)-c1ccccc1N(C(=O)c1ccc(NC(=O)c3ccccc3-c3ccccc3)cc1)CC2	LONG (A)	HeLa	plaque count	0.2 µM
N=C(N)c1ncn([C@@H]2O[C@H](CO)[C@@H](O)[C@H]2O)n1	-	-	-	1–100 µM
N#Cc1cc(C#N)c2[nH]c3ccccc3n2c1=O	LONG	HEP-2	plaque count	1.51 µg/mL
Cc1cc(=O)c2c(O)c(C)c(O[C@H]3O[C@H](CO)[C@@H](O)[C@H](O)[C@H]3O)c(C)c2o1	-	HEP-2	cytopathic effect	6.9 µg/mL
Nc1ccn([C@H]2C[C@@H](O)[C@H](CO)O2)c(=O)n1	A2	VERO B	cytopathic effect	>10 µM
C[C@@]1(O)[C@H](O)[C@@H](COP(=O)(O)OP(=O)(O)OP(=O)(O)O)O[C@H]1n1ccc2c(N)ncnc21	-	MA-104	neutral red	>320 µM
CCCCCCCCCCCCCCCCCCCCCCO	-	VERO	syncytia	<5 µg/mL
CCC(NC(=S)Nc1ccc(NC(=O)c2cscn2)cc1)c1cc(C(F)(F)F)cc(C(F)(F)F)c1	-	-	-	>5 µM
Cc1cc(C)c2nc(NCCC3CCCN3C)n(Cc3nc(C)ccc3O)c2c1	-	HeLa	cytopathic effect	0.04 µM
O=c1ccn([C@H]2C[C@@H](O)[C@H](CO)O2)c(=O)[nH]1	A2	VERO B	cytopathic effect	>100 µM
COc1cc(OC)c(NC(=S)Nc2cc(OC)c(NC(=O)c3ccco3)cc2OC)cc1Cl	-	HFF	-	>10 µg/mL
COc1ccc(CCNc2nc3ccccc3n2Cc2nc(C)ccc2O)cc1	-	HeLa	cytopathic effect	2.512 µM
NC(=O)CCN(CCC(N)=O)S(=O)(=O)c1cccc(Nc2nc(Nc3cccc(S(=O)(=O)N(CCC(N)=O)CCC(N)=O)c3)nc(Nc3ccc(Nc4ccc(-c5ccc(Nc6ccc(Nc7nc(Nc8cccc(S(=O)(=O)N(CCC(N)=O)CCC(N)=O)c8)nc(Nc8cccc(S(=O)(=O)N(CCC(N)=O)CCC(N)=O)c8)n7)cc6S(=O)(=O)[O-])cc5CO)c(CO)c4)c(S(=O)(=O)[O-])c3)n2)c1	A2	HFF	ELISA	>25 µM
Nc1nc2ncn(O)c2c(=O)[nH]1	LONG	BHK	ELISA	4.1 µg/mL
C=C(N=CC)c1nc(-c2ccc(OC)cc2)n(C2O[C@H](CO)[C@@H](O)[C@H](O)[C@H]2O)n1	LONG	HeLa	cytopathic effect	100 µg/mL
O=C(/C=C/c1ccc(O)c(O)c1)O[C@@H]1CC(O)(C(=O)O)C[C@@H](OC(=O)/C=C/c2ccc(O)c(O)c2)C1O	Washington (type B)	HEP-2	cytopathic effect	0.167 µg/mL

The last 2 rows once more:

structure | strain or isolate | cells | read by | value
C=C(N=CC)c1nc(-c2ccc(OC)cc2)n(C2O[C@H](CO)[C@@H](O)[C@H](O)[C@H]2O)n1 | LONG | HeLa | cytopathic effect | 100 µg/mL
O=C(/C=C/c1ccc(O)c(O)c1)O[C@@H]1CC(O)(C(=O)O)C[C@@H](OC(=O)/C=C/c2ccc(O)c(O)c2)C1O | Washington (type B) | HEP-2 | cytopathic effect | 0.167 µg/mL